Measured values from several laboratories, pooled; numbers as filed in NIAID ChemDB.

All rows: enzyme or target tests; species: HIV; target: Reverse transcriptase

An empty or dashed field is not shown.

smiles,tested at,mutations,method,endpoint,value
Nc1ccn([C@H]2CC[C@@H](COP(=O)(O)OP(=O)(O)OP(=O)(O)OP(=O)(O)OC[C@@H]3CC[C@H](n4ccc(N)nc4=O)O3)O2)c(=O)n1,,RT-W88G,nucleotide incorporation / radiometric,IC50,9.2 µM
Nc1ccn([C@@H]2CS[C@H](COP(=O)(O)OP(=O)(O)OP(=O)(O)O)O2)c(=O)n1,,RT-Q151M,radiometric,fold resistance,0.59
CSc1ncc(C(N)=O)c(Nc2ccc3cn[nH]c3c2)n1,1 µg/mL,,ELISA,inhibition,62%
Nc1nc2c(ncn2[C@H]2CC[C@@H](COP(=O)(O)OP(=O)(O)OP(=O)(O)O)O2)c(=O)[nH]1,,RT-L74V,,fold resistance,4.29
CC(C)=CCN1Cc2cccc3[nH]c(=S)n(c23)C[C@@H]1C,,RT-K263V,nucleotide incorporation,IC50,0.5 µM
CCOC(=O)c1c(C(C)C)c(C#N)c(=N)n2ccccc12,80 µM,,,inhibition,15%
CC(C)=CCN1Cc2cccc3[nH]c(=S)n(c23)C[C@@H]1C,,,nucleotide incorporation,Ki,0.76 µM
Nc1ccn([C@H]2C[C@H](O)[C@@H](COP(=O)(O)OP(=O)(O)OP(=O)(O)O)O2)c(=O)n1,,RT-Y188L,nucleotide incorporation / radiometric,fold resistance,1.25
Nc1nc2c(ncn2[C@H]2CC[C@@H](COP(=O)(O)OP(=O)(O)OP(=O)(O)OP(=O)(O)OC[C@@H]3CC[C@H](n4cnc5c(=O)[nH]c(N)nc54)O3)O2)c(=O)[nH]1,,RT-W88G,nucleotide incorporation / radiometric,IC50,6 µM
Nc1nc2c(ncn2[C@H]2CC[C@@H](COP(=O)(O)OP(=O)(O)OP(=O)(O)O)O2)c(=O)[nH]1,,RT-V77I F116Y Q151M,nucleotide incorporation / radiometric,IC50,0.054 µM
Nc1ncnc2c1ccn2[C@H]1C[C@H](F)[C@@H](COP(=O)(O)OP(=O)(O)OP(=O)(O)O)O1,,RT-M41L T215Y,nucleotide incorporation / radiometric,fold resistance,2
Cc1cn([C@H]2CC[C@@H](COP(=O)(O)OP(=O)(O)OP(=O)(O)O)O2)c(=O)[nH]c1=O,,RT-T215Y,,fold resistance,9.55
Nc1ccn([C@H]2CC[C@@H](COP(=O)(O)OP(=O)(O)OP(=O)(O)O)O2)c(=O)n1,,RT-V75I F77L F116Y Q151M,nucleotide incorporation / radiometric,IC50,9.7 µM
Nc1ccn([C@H]2CC[C@@H](COP(=O)(O)OP(=O)(O)OP(=O)(O)O)O2)c(=O)n1,,RT-Y188L,nucleotide incorporation / radiometric,fold resistance,1.22
Nc1nc2c(ncn2[C@H]2CC[C@@H](COP(=O)(O)OP(=O)(O)OP(=O)(O)O)O2)c(=O)[nH]1,,RT-W88G,nucleotide incorporation / radiometric,IC50,0.24 µM

2 of the rows above, restated:

Nc1ccn([C@@H]2CS[C@H](COP(=O)(O)OP(=O)(O)OP(=O)(O)O)O2)c(=O)n1 ; mutations: RT-Q151M ; method: radiometric ; endpoint: fold resistance ; value: 0.59
Nc1ccn([C@H]2CC[C@@H](COP(=O)(O)OP(=O)(O)OP(=O)(O)O)O2)c(=O)n1 ; mutations: RT-Y188L ; method: nucleotide incorporation / radiometric ; endpoint: fold resistance ; value: 1.22

ICn is the concentration giving n% inhibition. Fold resistance: result on the changed form divided by that on wild type. Rows are shuffled and stem from different studies. Inhibition is in % at the dose shown (toxicity tests: loss of growth or viability).